Assay results: patent publication US9687432B2, “Antimicrobial bispyridine amine compositions and uses” (LONZA INC., priority 2012, dated 2017)
Structures can show the parent of a compound that is named as a salt.

Experiment: Corrosion testing on metal coupons
Conditions: Aluminum coupon
[1] = 0.3% active in ethanol added as a 20% or 30% solution in propylene glycol, 7 days (samples 5-8)
[2] = 0.3% active in ethanol added directly, 5 days (samples 1, 2)

Compound | corrosion Results (visual) [1] | corrosion Results (visual) [2] | corrosion Results (visual) (0.3% in ethanol added directly, 7 days (samples 9, 10))
CCCCCCCCN=c1ccn(CCCCCCCCCCn2ccc(=NCCCCCCCC)cc2)cc1 [Octenidine HCl, Octenidine dihydrochloride] | Uniform corrosion on | Corrosion on majority of | 
CCCCCCCCCCCCCCCCCC(=O)O.CCCCCCCCCCCCCCCCCC(=O)O.CCCCCCCCN=c1ccn(CCCCCCCCCCn2ccc(=NCCCCCCCC)cc2)cc1 [Octenidine distearate, octenidine distearate] | Vey little corrosion except | Vey little corrosion except | 
CCCCCCCCCCCCCCCCCC(=O)O [stearic acid] |  |  | No corrosion
